Tested on: SARS-CoV-2 Delta strain (B.1.617.2)
Assay: microbe, parasite or virus in culture
Settings: Severe acute respiratory syndrome coronavirus 2, Vero C1008

CC(C)(C)[C@H](NC(=O)C(F)(F)F)C(=O)N1CC2(C[C@H]1C(=O)N[C@H](C#N)C[C@@H]1CCNC1=O)SCCS2 [Compound 2]
IC50: 40 nM

— patent US20240408065A1, “CYANO COMPOUND, AND PREPARATION METHOD THEREFOR AND USE THEREOF” (SHANGHAI INSTITUTE OF MATERIA MEDICA, CHINESE ACADEMY OF …, priority 2021, published 2024)
